Laboratory results taken from paper PMC6627553, “Cardiac Rhythm and Molecular Docking Studies of Ion Channel Ligands with Cardiotoxicity in Zebrafish” (Cells, 2019).

System: zebrafish embryos aged 72 hpf
Details: in vivo

In the case of Niguldipine-HCl [compound 1358], the “Atrium and ventricle rhythmicity pattern after 30 min incubation” value was 1:1 rhythm, but the heart slowed nonetheless.
